# Legend:
# [1] = tested on: CHO K1 cell line expressing the HA of influenza H1N1 (A/California/04/2009)
# [2] = tested on: CHO K1 cell line expressing the HA of influenza H1N1 (A/California/04/2009); remark: listed apart in the source
substance,measurement,setting,value
"CT-P6: negative control, anti-Her2 antibody",cytotoxicity (CDC),[1],no cytotoxicity
same,cytotoxicity (ADCC),[2],no cytotoxicity

# Reference: patent US10703802B2 (priority 2013, dated 2020)
